# Laboratory results taken from PMC9481026 (PLoS ONE, 2022).
# Assay: in vitro
# Settings: human
smiles,measurement,value
Cc1cc(O)c(=O)c(O)cc1S(=O)(=O)c1ccccc1 [Compound 336],CC50,45.4 µM
